Assay results reported in patent US9358276B2, “Methods of diagnosing and treating small intestinal bacterial overgrowth (SIBO) and SIBO-related conditions” (Cedars-Sinai Medical Center, priority 1999, dated 2016).

Tested on: upper gut transit
Experiment: Upper gut transit time by lactulose breath hydrogen test after oleate or oleic acid
Assay type: in vivo, human
Conditions: 4 grams of oleic acid
Description: In a preliminary study, five patients with persistent diarrhea for 3 to 22 months, (one each due to vagal denervation, ileal resection for Crohn's disease, and vagotomy and antrectomy, and two due to idiopathic causes) were studied. […] This test relies on the metabolism of certain carbohydrate materials (e.g. lactulose) by the microbial flora within the caecum. By generating gas which can be detected in the expired air, it is possible to make some estimation about the initial arrival of the administered material within the colon.
Each patient received orally in random order, 0, 1.6 or 3.2 g of sodium oleate in 25 mL Ensure (Ross), followed by 100 mL water. Thirty minutes after each dose of oleate, patients received 10 g lactulose orally, followed by 25 mL water. Breath samples were collected in commercially available breath testing bags (Quintron, Menomonee Falls, Wis.) every 10-15 minutes, and the hydrogen content of the samples was measured using a breath analyzer (Microlyzer Model 12, Quintron Instruments, Menomonee Falls, Wis.), calibrated against gas samples of known hydrogen concentration. With a syringe, a 40-mL sample of the expired breath was withdrawn from the collection bag and analyzed immediately for hydrogen concentration (ppm). […] Data were further analyzed using 1-way repeated measures analysis of variance (ANOVA)(See Table 4). […]

CCCCCCCC/C=C\CCCCCCCC(=O)O [oleic acid]
mean AUC (IBD patients): 1244.9±250.4
mean AUC (normal subjects): 1873.3±330.5
